These results are taken from US20070048329A1, “Epstein barr virus peptide epitopes, polyepitopes and delivery system therefor” (priority 2002, published 2007).

“Also recorded” adds a separate entry of the source.

The first series concerns peptide-sensitised PHA blasts and LCLs.
Assay: not given
Conditions: reference Khanna et. al. or Leen et. al.; cited from earlier work.
Consider ESDSNSNEG [reference compound], for which the “HLA Restriction” value was “HLA DQ2”.
YLLEMLWRL [reference compound]: the “HLA Restriction” value is recorded as “HLA A2”.
Consider YLQQNWWTL [reference compound], for which the “HLA Restriction” value is reported as “HLA A2”.

For the next series the test system is unchanged. Description: 51Cr-release cytotoxicity assay with peptide-specific CTL lines and clones. The settings on record: CTL lines/clones against autologous and allogeneic targets sharing HLA alleles. The series is classed as cell-based, human. The protocol: Polyclonal CTL lines and LMP1-specific CTL clones were established according to previously published methods (Moss 1988; Khanna 1998). Briefly, 2×10^6 PBMCs were stimulated with 1×10^6 autologous lymphocytes (responder to stimulator ratio of 2:1) pulsed with 10 μM peptide for 1 hr in 2 ml in a 24-well plate. After 3 days, culture medium with IL-2 (10 U/ml) was added and the cells were further expanded. These lymphocytes were restimulated on day 7 with γ-irradiated (8000 rad) autologous LCLs. After 10 days in culture medium, the cells were used as polyclonal effectors in a standard ^51Cr-release assay against peptide-sensitised autologous PHA blasts.
To generate peripheral blood CTL clones specific for the LMP1 derived peptides, PBMCs of healthy donors were reactivated (2×10^6) PBMCs with peptide-sensitised (10 ug of peptide/ml) autologous lymphocytes (1×10^6) in 2 ml wells of a 24-well plate in culture medium. After 3 days, the cells were seeded onto 0.35% agarose and maintained in T cell growth medium containing rIL2 (50 IU/ml). After another 3 days, growing clones were transferred to 96-well round-bottom tissue culture plates (Life Technologies) and cultured in T cell growth medium containing rIL2 (50-100 IU/ml).
Target cells were pre-sensitized with synthetic peptide epitopes and then incubated with ^51Cr for 90 min. Following incubation, these cells were washed in growth medium and used as targets in a standard 5 h ^51Cr-release assay (Moss, 1988)
To further characterize the minimal T cell epitopes defined by ELISPOT assays we generated polyclonal and clonal CTL lines specific for these epitopes. PBMCs from the healthy seropositive donors were stimulated with synthetic peptide epitopes and the CTL clones or polyclonal lines were established and tested in standard ^51Cr-release assays. The […] peptide-specific CTL clones were generated using initial stimulation with peptide-sensitized autologous PBMC followed by continuous restimulation with irradiated autologous LCL. These CTL clones were screened for […]-specific CTL activity by ^51Cr release assays against peptide-sensitised autologous and allogeneic PHA blast and LCLs. […] Titration of this minimal epitope on autologous PHA blasts further confirmed the fine specificity of this CTL clone (FIG. 5B).
As to ALLVLYSFA, the “HLA Restriction” value is on record as “HLA A2”.
ALLVLYSFAL: the “HLA Restriction” value is “HLA A2”.
On the same count and under the same terms, the result for IALYLQQNW reads “HLA B57 and HLA B58; also recorded: HLA B571B58”; that for VLYSFALML, “HLA A2”.
